Pooled drug test results. Numbers come from NIAID ChemDB, via PubChem.

Common to all: tests in culture; organism: Vaccinia virus; cells: HEL; endpoint: EC50

ECn is the concentration giving n% inhibition of infection, replication or growth. Conditions beyond the fields shown may differ between rows.

compound | result
CCCCCCC#Cc1c[nH]c(=O)[nH]c1=O | >200 µM
CC1=Nn2c(nnc2-c2cn(-c3ccccc3)nc2-c2ccccc2)SC1 | >16 µg/mL
O=c1[nH]c(=O)n([C@@H]2O[C@H](CO)[C@@H](O)[C@@H]2O)cc1-c1cccs1 | >400 µg/mL
CCCCCCCCc1cc2cnc(=O)[nH]c2o1 | >200 µM
c1ccc(-c2nn3c(-c4cn(-c5ccccc5)nc4-c4ccccc4)nnc3s2)cc1 | >3.2 µg/mL
CCCCC#Cc1cn(S(=O)(=O)c2ccc(C)cc2)c(=O)[nH]c1=O | >40 µM
Nc1ncnc2c1ncn2C[C@H](O)CO | >20 µg/mL
O=c1[nH]c(=O)n([C@H]2C[C@H](O)[C@@H](CO)O2)cc1-c1ccc(Br)o1 | 70 µg/mL
Nc1nccc2c1ncn2[C@@H]1C[C@H](CO)[C@@H](O)[C@H]1O | 0.7 µg/mL
Cc1nn2c(-c3cn(-c4ccccc4)nc3-c3ccccc3)nnc2s1 | >16 µg/mL
O=c1[nH]c(=O)n([C@H]2C[C@H](O)[C@@H](CO)O2)cc1-c1cccs1 | >400 µg/mL
CCCCCCCCCCC#Cc1cn(S(=O)(=O)c2ccc(C)cc2)c(=O)[nH]c1=O | >200 µM
Cn1ccnc1-c1cn([C@H]2C[C@H](O)[C@@H](CO)O2)c(=O)[nH]c1=O | >200 µg/mL
Cc1ccc(S(=O)(=O)n2cc(I)c(=O)[nH]c2=O)cc1 | >200 µM
Nn1c(SCC(=O)O)nnc1-c1cn(-c2ccccc2)nc1-c1ccccc1 | >80 µg/mL
O=c1[nH]c(=O)n([C@@H]2C[C@H](O)[C@@H](CO)O2)cc1-c1cccs1 | >200 µg/mL

For reference, 2 entries again:

compound | result
Cn1ccnc1-c1cn([C@H]2C[C@H](O)[C@@H](CO)O2)c(=O)[nH]c1=O | >200 µg/mL
Nn1c(SCC(=O)O)nnc1-c1cn(-c2ccccc2)nc1-c1ccccc1 | >80 µg/mL